Reference: patent US8785452B2, “Anti-infective compounds” (priority 2008, dated 2014)

Key:
[1] = test system: M. tuberculosis H37Rv-GFP; conditions: confirmation, in vitro growth
[2] = test system: M. tuberculosis H37Rv-GFP

Structure (SMILES): C/C(=N/NC(=O)c1cc([N+](=O)[O-])cc([N+](=O)[O-])c1)c1ccc([N+](=O)[O-])o1
- QUM Confirm % Inhibition 0.2 uM ([1]; 0.2 uM): 41.1%
- QUM Confirm % Inhibition 2 uM ([1]; 2 uM): 41.9%
- QUM Confirm % Inhibition 20 uM ([1]; 20 uM): 67.6%
- QIM Confirm % Inhibition 0.2 uM ([2]; confirmation, 0.2 uM, intracellular): 42.7%
- QIM Confirm % Inhibition 2 uM ([2]; confirmation, 2 uM, intracellular): 17.6%
- QIM Confirm % Inhibition 20 uM ([2]; confirmation, 20 uM): 4.1%
- Primary QIM % Inhibition ([2]; primary screen, 20 μM): −57.3%
